Measured values from several laboratories, pooled; numbers as filed in NIAID ChemDB.

All rows: whole-cell or culture tests; agent: Mycobacterium smegmatis; endpoint: MIC

Lines come from different laboratories, so protocols vary.

| smiles | strain | method | value |
|---|---|---|---|
| COc1cc2c(cc1OC)CN(c1cc3c(cc1[N+](=O)[O-])c(=O)c(C(=O)O)c1n3CS1)CC2 | ATCC 14468 MC2 | agar | 106.5 µM |
| CCCCCCCCCCCCCCCCNC(=O)NC(CCC(=O)O)(CCC(=O)O)CCC(=O)O | mc155 |  | 18 µg/mL |
| NC1CCN(CCCCn2ccc(Nc3cc(C(=O)N4CC[C@@H](O)C4)ccn3)nc2=O)CC1 |  | turbidity | 32–128 µg/mL |
| COc1ccc(-c2[nH]c3ccccc3c2C2=C(Br)C(=O)N(C)C2=O)cc1 | SG987 |  | 12.5 µg/mL |
| O=C(O)c1c2n(c3cc(N4CCN(C(=O)c5ccco5)CC4)c(F)cc3c1=O)CS2 | ATCC 14468 MC2 | agar | 58.22 µM |
| CC[C@H]1OC(=O)[C@H](C)[C@@H](O[C@H]2C[C@@](C)(OC)[C@@H](O)[C@H](C)O2)[C@H](C)[C@@H](O[C@@H]2O[C@H](C)C[C@H](N(C)C)[C@H]2O)[C@](C)(OC)C[C@@H](C)C(=O)[C@H](C)[C@@H](O)[C@]1(C)O | mc155 |  | 12.5 µg/mL |
| CCCCCCCCCCCCOc1cc(-c2ccccc2F)nc2ccccc12 | ATCC 607 |  | 500 µg/mL |
| CSCC[C@H](NS(=O)(=O)c1ccc(C)cc1)C(=O)N/N=C/C1CCCCC1 | ATCC 607 | broth dilution / visual reading | >250 µg/mL |
| CCc1cc(C(N)=S)ccn1 | MC^2 845 |  | >80 µg/mL |
| CN1CCN(Cc2ccc(NC(=O)c3ccc(-c4ccccc4)cc3)cc2)CC1 | 103599 |  | 8 µg/mL |
| O=C(O)c1cn2c(n1)CN(c1cc3c(cc1[N+](=O)[O-])c(=O)c(C(=O)O)c1n3CS1)CC2 | ATCC 14468 MC2 | agar | 14.09 µM |
| O=C(O)c1c2n(c3cc([N+](=O)[O-])c(N4CCC5(CC4)OCCO5)cc3c1=O)CS2 | ATCC 14468 | agar | 59.61 µM |
| CCCCCCCCCCCCCCCCCCCCCCOC(=O)NC(C)(CCC(=O)O)CCC(=O)O | mc155 |  | 630 µg/mL |
| O=C(O)c1c2n(c3cc([N+](=O)[O-])c(N4CCN(Cc5ccc6c(c5)OCO6)CC4)cc3c1=O)CS2 | ATCC 14468 | agar | 6.3 µM |
| CCCCCCCCCCOc1cc(-c2ccccc2F)nc2ccccc12 | ATCC 607 |  | 500 µg/mL |
| CCCCCCCCC(CCCCCCCC)OC(=O)NC(CCC(=O)O)(CCC(=O)O)CCC(=O)O | mc155 |  | 71 µg/mL |
| COc1ccc(-c2c(C3=C(Br)C(=O)NC3=O)c3ccccc3n2C)cc1 | SG987 |  | 12.5 µg/mL |
| O=C(O)c1c2n(c3cc(N4CCC(n5c(=O)[nH]c6cc(Cl)ccc65)CC4)c(F)cc3c1=O)CS2 | ATCC 14468 MC2 | agar | 49.91 µM |
| COc1ccc(CC2C3=C(CCCC3)CCN2c2c(F)c(N)c3c(=O)c(C(=O)O)cn(C4CC4)c3c2OC)cc1 | ATCC 14468 | agar | 5.72 µM |
| CCCCCCCCCCCOc1cc(-c2cccc(F)c2)nc2ccccc12 | ATCC 607 |  | 62.5 µg/mL |
| O=C(Nc1cccc(CN2CCOCC2)c1)c1ccc(Cl)cc1 | 103599 |  | >16 µg/mL |
| C=C1C2CCC(CO)[C@@]23CC[C@H](C3)C1(C)C | ATC 700084 | agar diffusion | 25 µg/mL |
| NC1CCN(CCCCn2ccc(Nc3cc(C(=O)N4CCC(CO)CC4)ccn3)nc2=O)CC1 |  | turbidity | <8 µg/mL |
| C=CCOc1ccc(/C=N/NC(=O)[C@H](CCSC)NS(=O)(=O)c2ccc(C)cc2)cc1 | ATCC 607 | broth dilution / visual reading | >250 µg/mL |
| O=C(Nc1ccc(Cn2ccnc2)cc1)c1ccc(Cl)cc1 | 103599 |  | >16 µg/mL |
| COc1cc2c(cc1OC)CN(c1cc3c(cc1F)c(=O)c(C(=O)O)c1n3CS1)CC2 | ATCC 14468 MC2 | agar | 113 µM |
| COc1c(N2CCc3ccccc3C2C(=O)NC(C)(C)C)c(F)cc2c(=O)c(C(=O)O)cn(C3CC3)c12 | ATCC 14468 | agar | 49.26 µM |
| O=C(/C=C/c1ccccc1)Nc1cccc(CN2CCOCC2)c1 | 103599 |  | >16 µg/mL |
| CC[C@H](C)[C@@H](NC(=O)[C@@H](CCC(=O)O)NC(=O)[C@H](Cc1cnc[nH]1)NC(=O)[C@H](CC(C)C)NC(=O)[C@@H](C)N)C(=O)N[C@H]1CCCCNC1=O |  | resazurin | >50 µg/mL |
| CCCCc1[nH]c2ccccc2c1C1=C(Br)C(=O)NC1=O | SG987 |  | 2.17 µg/mL |
| NCCCNC(=O)c1ccnc(Nc2ccn(CCCCN3CCC(N)CC3)c(=O)n2)c1 |  | turbidity | <8 µg/mL |
| O=C(O)c1cn2c(n1)CN(c1cc3c(=O)c(C(=O)O)c4n(c3cc1[N+](=O)[O-])CS4)CC2 | ATCC 14468 | agar | 14.09 µM |
| CCCCCCCCCCC(CCCCCCCCCC)NC(=O)NC(CCC(=O)O)(CCC(=O)O)CCC(=O)O | mc155 |  | 27 µg/mL |
| CSCC[C@H](NS(=O)(=O)c1ccc(C)cc1)C(=O)N/N=C1/CCc2ccccc21 | ATCC 607 | broth dilution / visual reading | >250 µg/mL |
| CCCCCCCCCOc1cc(-c2cccc(F)c2)nc2ccccc12 | ATCC 607 |  | 62.5 µg/mL |
| COc1c(N2CCNC(C)C2)c(F)cc2c(=O)c(C(=O)O)cn(C3CC3)c12 | ATCC 14468 | agar | 2.08 µM |
| CSCC[C@H](NS(=O)(=O)c1ccc(C)cc1)C(=O)N/N=C/C1CC2=CCC1C2 | ATCC 607 | broth dilution / visual reading | >250 µg/mL |
| Cc1ccccc1NC(=O)CCCCCCCc1[nH]c2ccccc2c1C1=C(Br)C(=O)NC1=O | SG987 |  | 0.41 µg/mL |
| O=C(O)c1c2n(c3cc([N+](=O)[O-])c(N4CCC(N5CCCCC5)CC4)cc3c1=O)CS2 | ATCC 14468 | agar | 112 µM |
| CC(C)CCC[C@@H](C)[C@H]1CC[C@H]2[C@@H]3CC[C@H]4C[C@H](NC(=O)NC(CCC(=O)O)(CCC(=O)O)CCC(=O)O)CC[C@]4(C)[C@H]3CC[C@]12C | mc155 |  | 34 µg/mL |
| CSCC[C@H](NS(=O)(=O)c1ccc(C)cc1)C(=O)N/N=C/c1ccc(N2CCOCC2)cc1 | ATCC 607 | broth dilution / visual reading | >250 µg/mL |
| O=C(O)c1c2n(c3cc(N4CCN(C(=O)c5ccco5)CC4)c([N+](=O)[O-])cc3c1=O)CS2 | ATCC 14468 MC2 | agar | 0.85 µM |
| CCCCCCCCCCCCCCOc1cc(-c2ccc(F)cc2)nc2ccccc12 | ATCC 607 |  | 250 µg/mL |
| CCCCCCCCCCCCCCNC(=O)NC(CCC(=O)O)(CCC(=O)O)CCC(=O)O | mc155 |  | 18 µg/mL |
| CNCC1(COCc2ccc(Nc3ccn(CCCCN4CCC(N)CC4)c(=O)n3)nc2)CC1 |  | turbidity | 8–32 µg/mL |
| CSCC[C@H](NS(=O)(=O)c1ccc(C)cc1)C(=O)N/N=C/c1ccc(Br)o1 | ATCC 607 | broth dilution / visual reading | >250 µg/mL |
| CC(C)(C)NC(=O)C1c2ccccc2CCN1c1cc2c(=O)c(C(=O)O)c3n(c2cc1[N+](=O)[O-])CS3 | ATCC 14468 | agar | 98.32 µM |
| CCCCc1[nH]c2ccccc2c1C1=C(Br)C(=O)N(C)C1=O | SG987 |  | 25 µg/mL |
| CSCC[C@H](NS(=O)(=O)c1ccc(C)cc1)C(=O)N/N=C/c1cccc2c1OCO2 | ATCC 607 | broth dilution / visual reading | >250 µg/mL |
| COc1ccc(CC2C3=C(CCCC3)CCN2c2cc3c(=O)c(C(=O)O)c4n(c3cc2F)CS4)cc1 | ATCC 14468 | agar | 98.69 µM |
| CSCC[C@H](NS(=O)(=O)c1ccc(C)cc1)C(=O)N/N=C/c1c(Cl)cccc1Cl | ATCC 607 | broth dilution / visual reading | >250 µg/mL |
| O=C(O)c1c2n(c3cc(F)c(N4CCN(C(=O)c5ccco5)CC4)cc3c1=O)CS2 | ATCC 14468 | agar | 58.22 µM |
| COc1c(N2CCSCC2)c(F)c([N+](=O)[O-])c2c(=O)c(C(=O)O)cn(C3CC3)c12 | ATCC 14468 | agar | 3.68 µM |

Again, the opening 7 rows:

smiles | strain | method | value
COc1cc2c(cc1OC)CN(c1cc3c(cc1[N+](=O)[O-])c(=O)c(C(=O)O)c1n3CS1)CC2 | ATCC 14468 MC2 | agar | 106.5 µM
CCCCCCCCCCCCCCCCNC(=O)NC(CCC(=O)O)(CCC(=O)O)CCC(=O)O | mc155 |  | 18 µg/mL
NC1CCN(CCCCn2ccc(Nc3cc(C(=O)N4CC[C@@H](O)C4)ccn3)nc2=O)CC1 |  | turbidity | 32–128 µg/mL
COc1ccc(-c2[nH]c3ccccc3c2C2=C(Br)C(=O)N(C)C2=O)cc1 | SG987 |  | 12.5 µg/mL
O=C(O)c1c2n(c3cc(N4CCN(C(=O)c5ccco5)CC4)c(F)cc3c1=O)CS2 | ATCC 14468 MC2 | agar | 58.22 µM
CC[C@H]1OC(=O)[C@H](C)[C@@H](O[C@H]2C[C@@](C)(OC)[C@@H](O)[C@H](C)O2)[C@H](C)[C@@H](O[C@@H]2O[C@H](C)C[C@H](N(C)C)[C@H]2O)[C@](C)(OC)C[C@@H](C)C(=O)[C@H](C)[C@@H](O)[C@]1(C)O | mc155 |  | 12.5 µg/mL
CCCCCCCCCCCCOc1cc(-c2ccccc2F)nc2ccccc12 | ATCC 607 |  | 500 µg/mL

Two numbers with a dash give a range or band. Blank or dashed fields: not listed here.